In EP4014973B1, “INHALED LIQUID FOR THE TREATMENT OF RESPIRATORY INFECTIONS IN HUMANS CAUSED BY PATHOGENS RESISTANT TO ANTIBIOTICS” (Conick Biotech LLC, priority 2020, dated 2022) one finds irregularities, symptoms of allergy and tolerance data, which are given here for one compound.

Structures are written as SMILES.

This series deals with humans. The series can be described thus: Clinical pilot study of side effects after inhalation. Particulars: 80 humans.
[1] abbreviates: inhalation, 10ml of the novel compound 2% / 30 kg body weight every 8 hours for seven (7) days.

For `C=CCc1ccc(O)c(OC)c1.CCN(CC)CC(=O)Nc1c(C)cccc1C` [Novel Compound, N-[N'-(carboxymethylenyl-2,6-dimethyl-aniline)-N,N-diethylammonium]-[2'-methoxy-4'-(2'-propenyl)]-phenolate.], the irregularities at follow-up result (after 10 working day from the end of the testing) is given as “no irregularities were observed”. Besides, under setting [1], the symptoms of allergy entry is “no symptoms of allergy” and the tolerance entry is recorded as “showed tolerance”.
